The values below come from patent US20050130909A1 (priority 2002, published 2005).

For the series, the system named is N,N′-diacetyl-Lys-D-Ala-D-Ala. The series can be described thus: ITC of binding to tri-peptide cell-wall analog, with and without HSA. The method, then: Peptide concentrations were determined by weight.
Trans. R. Soc. Lond. Ser. A-Math. Phys. Eng. […] Wiley, (1998) p 103-111; and Cooper, A., Curr. Opin. Chem. Biol. (1999) 3, 557-563.

Consider `CN[C@H]1C(=O)N[C@@H]2Cc3ccc(cc3)Oc3cc4cc(c3O[C@@H]3O[C@H](C(=O)O)[C@@H](O)[C@H](O)[C@H]3NC(=O)CCCCCCCCC(C)C)Oc3ccc(cc3Cl)[C@@H](O)[C@@H]3NC(=O)[C@H](NC(=O)[C@@H]4NC(=O)[C@@H](NC2=O)c2cc(cc(O)c2Cl)Oc2cc1ccc2O)c1ccc(O)c(c1)-c1c(O[C@H]2O[C@H](CO)[C@@H](O)[C@H](O)[C@@H]2O)cc(O)cc1[C@@H](C(=O)NCCCN(C)C)NC3=O` [Dalbavancin], for which, where the note is “25 ° C., with HSA 34.2 μM”, the ΔS is −46.20 eu. Further, the “N (tri-peptide per dalbavancin)” value (absence of HSA) was approximately 0.5.
